Test results as given in US9051581B2, “Defense peptides against fungal infection and method of their use” (The Curators of the University of Missouri, priority 2010, dated 2015).

system: P. pachyrhizi urediniospores; assay: Affinity selection of phage-display peptides against germinated urediniospores; assay type: binding, Phakopsora pachyrhizi; conditions: three affinity-selection rounds against germinated urediniospores; among the 20 bioactive clones

Row | Sequence | Number of phage-peptide clones recovered
1 | ASTIGNLMPGHS (Random peptide insert) [Sp14, 12-mer phage-display selected peptide] | 2
2 | DHIRISTSYKSP (Random peptide insert) [Sp51, 12-mer phage-display selected peptide] | 1
3 | DRFTSDLRAPDS (Random peptide insert) [Sp61, 12-mer phage-display selected peptide] | 1
4 | FDPHEPTNTRSP (Random peptide insert) [Sp15, 12-mer phage-display selected peptide] | 2
5 | LTKEPATGRAML (Random peptide insert) [Sp18, 12-mer phage-display selected peptide] | 4
6 | MLESHAWPPRAI (Random peptide insert) [Sp2] | 3
7 | STVASLGKPTKI (Random peptide insert) [Sp8, 12-mer phage-display selected peptide] | 1
8 | TFDRHILDTRGS (Random peptide insert) [Sp6, 12-mer phage-display selected peptide] | 1
9 | TPTRSLDSPHNM (Random peptide insert) [Sp59, 12-mer phage-display selected peptide] | 2
10 | YISPLPNAATIS (Random peptide insert) [Sp5, 12-mer phage-display selected peptide] | 1
11 | YNKPSFQDHSVI (Random peptide insert) [Sp39] | 2
